Data source: PubChem BioAssay AID624099 (ICCB-Longwood, 2012)
The whole screen tested about 21,000 reagents; shown is an unselected part. Of all reagents, 497 (2.4%) were called active. 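Higher z means weaker E2 silencing; only reporter increases were scored, and knock-downs that hurt cell survival may mask genuine repressor factors.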 Entries without a mark were called inactive. No sequences are given here.

Assay: 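Host factors E2 relies on to silence an HPV18 LCR reporter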 (primary screen)
System: human C33A cervical carcinoma cells (HPV-negative) stably expressing BPV1 E2 and an HPV18 LCR luciferase reporter
Reagent: siRNA pool against human genes, 40 nM
Timing: 72 h
Measured: 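Per-well luciferase luminescence, z-scored on each plate against the plate mean and SD with control wells left out, then averaged across three replicate plates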
Reading the numbers: mean z-score and z-score: higher = stronger reporter signal, weaker E2 silencing
Active means: 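Hit if mean z-score reaches 2 and two or more of three replicate z-scores also reach 2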

no.	target gene	mean z-score	z-score, replicate A	z-score, replicate B	z-score, replicate C
1	RCOR2 (REST corepressor 2)	-4.26	-3.36	-4.3	-5.13
2	CCND2 (cyclin D2)	-0.77	-1.04	-0.25	-1.03
3	KCTD21 (potassium channel tetramerization domain containing 21)	0.52	0.38	0.76	0.41
4	EEF1G (eukaryotic translation elongation factor 1 gamma)	0.87	0.9	0.89	0.82
5	ADIPOR2 (adiponectin receptor 2)	-0.6	-0.84	-0.35	-0.61
6	MRPL38 (mitochondrial ribosomal protein L38)	0.33	0.79	0.16	0.05
7	ETNPPL (ethanolamine-phosphate phospho-lyase)	0.91	1.05	0.95	0.74
8	CATSPERH (catsper channel auxiliary subunit eta)	-2.07	-2.03	-1.9	-2.27
9	KLK14 (kallikrein related peptidase 14)	1.79	2.02	1.76	1.6
10	NDRG2 (NDRG family member 2)	0.88	0.95	1.18	0.52
11	NARS1 (asparaginyl-tRNA synthetase 1)	2.78 (active)	2.63	2.95	2.76
12	SACK1B (scaffolding CK1 anchoring protein B)	1	0.92	1.07	1.63
13	DENND4B (DENN domain containing 4B)	-0.87	-1.26	-0.53	-0.82
14	LOC643406	0.29	0.69	0.11	0.07
15	PEX11A (peroxisomal biogenesis factor 11 alpha)	-0.1	-0.47	0.16	0.01
16	ZNF318 (zinc finger protein 318)	1.08	0.72	1.16	1.38
17	OR7E35P (olfactory receptor family 7 subfamily E member 35 pseudogene)	1	0.95	1.3	0.75
18	GCFC2 (GC-rich sequence DNA-binding factor 2)	-0.44	-0.07	-0.72	-0.52
19	MTHFS (methenyltetrahydrofolate synthetase)	-1.24	-1.32	-1.19	-1.21
20	ZNF510 (zinc finger protein 510)	0.34	0.33	0.45	0.23
21	RUSC2 (RUN and SH3 domain containing 2)	-0.36	-0.41	-0.12	-0.55
22	LOC254938 (retired record)	0.04	-0.1	-0.47	0.7
23	SFXN1 (sideroflexin 1)	0.22	0.02	0.34	0.3
24	ZWINT (ZW10 interacting kinetochore protein)	0.23	1.2	0.08	-0.58
25	CCDC54 (coiled-coil domain containing 54)	-1.49	-1.19	-1.32	-1.97
26	GRWD1 (glutamate rich WD repeat containing 1)	0.55	0.56	0.56	0.52
27	CCP110 (centriolar coiled-coil protein 110)	-1.26	-1.33	-1.42	-1.04
28	MAD2L1BP (MAD2L1 binding protein)	-0.12	0.02	-0.33	-0.05
29	C22orf31 (chromosome 22 open reading frame 31)	0.9	0.76	0.93	1.02
30	OR6B2 (olfactory receptor family 6 subfamily B member 2)	-0.64	-0.77	-0.62	-0.51
31	C1QTNF1 (C1q and TNF related 1)	0.23	0.02	0.45	0.21
32	PSMC3IP (PSMC3 interacting protein)	-0.74	-0.45	-0.78	-0.98
33	CCDC142 (coiled-coil domain containing 142)	1.1	1	1.23	1.06
34	CKM (creatine kinase, M-type)	-1.39	-1.31	-1.51	-1.35
35	PLCXD1	-0.09	0.17	-0.22	-0.22
36	UBLCP1 (ubiquitin like domain containing CTD phosphatase 1)	0.52	0.51	0.34	0.71
37	BRD2 (bromodomain containing 2)	-2.71	-2.4	-2.84	-2.89
38	VCPIP1 (valosin containing protein interacting protein 1)	-0.71	-0.92	-0.72	-0.49
39	KRT4 (keratin 4)	0.72	0.66	0.88	0.6
40	CLINT1 (clathrin interactor 1)	-2.6	-2.67	-2.5	-2.64
41	RHOQP3 (ras homolog family member Q pseudogene 3)	0.15	0.2	0.17	0.09
42	LOC388259 (retired record)	0.28	0.52	0.28	0.04
43	SLC13A5	-0.35	-0.56	-0.27	-0.2
44	LOC401529 (retired record)	0.13	0.36	-0.06	0.09
45	HACL1 (2-hydroxyacyl-CoA lyase 1)	-2.08	-1.93	-1.97	-2.35
46	S100A13 (S100 calcium binding protein A13)	0.17	0.43	0.53	-0.44
47	DOK2 (docking protein 2)	0.52	0.37	0.55	0.64
48	SLC36A3	0.05	-0.6	1.1	-0.36
49	SERPINB8 (serpin family B member 8)	0.74	0.76	0.36	1.1
50	PCYT2 (phosphate cytidylyltransferase 2, ethanolamine)	0.08		0.05	0.1
51	AKIP1 (A-kinase interacting protein 1)	0.04	0.12	-0.31	0.3
52	FADS1 (fatty acid desaturase 1)	0.79	1.21	0.57	0.6
53	TRIM14 (tripartite motif containing 14)	-1.27	-0.92	-1.3	-1.6
54	ZNHIT3 (zinc finger HIT-type containing 3)	-0.49	-0.48	-0.54	-0.46
55	ONECUT1 (one cut homeobox 1)	0.61	0.52	0.74	0.57
56	PRKD2 (protein kinase D2)	-0.11	-0.06	-0.29	0.03
57	LOC340171 (retired record)	0.28	0.25	0.19	0.39

6 entries from above, ordered by “mean z-score”, low to high:
target gene	mean z-score	z-score, replicate A	z-score, replicate B	z-score, replicate C
CKM (creatine kinase, M-type)	-1.39	-1.31	-1.51	-1.35
PSMC3IP (PSMC3 interacting protein)	-0.74	-0.45	-0.78	-0.98
OR6B2 (olfactory receptor family 6 subfamily B member 2)	-0.64	-0.77	-0.62	-0.51
PLCXD1	-0.09	0.17	-0.22	-0.22
C1QTNF1 (C1q and TNF related 1)	0.23	0.02	0.45	0.21
CCDC142 (coiled-coil domain containing 142)	1.1	1	1.23	1.06
